PubChem BioAssay AID1224833, University of Georgia, 2016

- Screen: 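Human genes whose knock-down alters rotavirus replication in monkey cells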 (primary screen)
- System: monkey MA104 kidney cells
- Knock-down reagent: siRNA pool against human genes, 50 nM
- Timing: 48 h knock-down before infection; read 24 h after infection
- Treatment: infection with rotavirus strain RV3 two days after transfection; infectious dose for this stage not given
- Measurement: 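z-score of rotavirus antigen signal per well, from a fluorescent immunoassay, relative to non-targeting control wells on the same plate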
- Scale: z-score vs non-targeting control: higher = more rotavirus replication than with non-targeting control
- Hit rule: In these data the active calls have z-score vs non-targeting control at about -1 or lower, or at about 1 or higher
- Calls: active = z-score beyond 1 either way; inactive = z-score within 1 of zero
Here is one part, drawn at random, of about 12,000 reagents tested. About 5,600 of them (46%) were called active. 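Active calls cover z-scores past 1 in both directions, so they include lowered as well as raised rotavirus replication.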 No sequences are given here.

gene symbol	z-score vs non-targeting control	Outcome
SEC61G (SEC61 translocon subunit gamma)	-1.49	active
ZNF721 (zinc finger protein 721)	-1.07	active
CNTF (ciliary neurotrophic factor)	3.06	active
MAMDC4 (MAM domain containing 4)	-2.03	active
UBR7 (ubiquitin protein ligase E3 component n-recognin 7)	-0.974	inactive
NCAPH (non-SMC condensin I complex subunit H)	0.229	inactive
KDM4A (lysine demethylase 4A)	0.483	inactive
APOBEC3G (apolipoprotein B mRNA editing enzyme catalytic subunit 3G)	0.555	inactive
MSH3 (mutS homolog 3)	0.576	inactive
VGLL2 (vestigial like family member 2)	-2.34	active
MISP (mitotic spindle positioning)	0.145	inactive
ATXN7 (ataxin 7)	-0.437	inactive
ZNF232 (zinc finger protein 232)	1.33	active
HEPN1 (hepatocellular carcinoma, down-regulated 1)	1.34	active
RO60 (Ro60, Y RNA binding protein)	-1.92	active
ATAD2 (ATPase family AAA domain containing 2)	-0.584	inactive
ABR (ABR activator of RhoGEF and GTPase)	-0.588	inactive
EDN2 (endothelin 2)	0.358	inactive
EFHB (EF-hand domain family member B)	1.26	active
VAMP4 (vesicle associated membrane protein 4)	0.321	inactive
PPIA (peptidylprolyl isomerase A)	-1.78	active
CCDC116 (coiled-coil domain containing 116)	-0.528	inactive
MSMB (microseminoprotein beta)	1.79	active
BNC1 (basonuclin zinc finger protein 1)	-0.7	inactive
ABCA10 (ATP binding cassette subfamily A member 10)	-0.978	inactive
AZGP1 (alpha-2-glycoprotein 1, zinc-binding)	1.86	active
SNAP91 (synaptosome associated protein 91)	1.3	active
FAM24B (family with sequence similarity 24 member B)	-0.592	inactive
PCDHA8 (protocadherin alpha 8)	1.99	active
CENPA (centromere protein A)	0.27	inactive
RER1 (retention in endoplasmic reticulum sorting receptor 1)	-2.32	active
KIZ (kizuna centrosomal protein)	-0.356	inactive
ERMAP	-0.352	inactive
POFUT3 (protein O-fucosyltransferase 3)	-0.169	inactive
OR10Q1 (olfactory receptor family 10 subfamily Q member 1)	2.76	active
EARS2 (glutamyl-tRNA synthetase 2, mitochondrial)	1.4	active
PDCD10 (programmed cell death 10)	0.397	inactive
TSTD2 (thiosulfate sulfurtransferase like domain containing 2)	-1.37	active
KLHDC1 (kelch domain containing 1)	0.382	inactive
ABCC11 (ATP binding cassette subfamily C member 11)	-2.79	active
ABHD4 (abhydrolase domain containing 4, N-acyl phospholipase B)	-1.46	active
SRSF6 (serine and arginine rich splicing factor 6)	0.88	inactive
COPB2 (coat protein complex I subunit beta 2)	1.23	active
ZKSCAN8 (zinc finger with KRAB and SCAN domains 8)	-0.191	inactive
ZDHHC20 (zDHHC palmitoyltransferase 20)	-0.565	inactive
PWWP2B (PWWP domain containing 2B)	-0.95	inactive
ZNF672 (zinc finger protein 672)	-1.15	active
OR9K2 (olfactory receptor family 9 subfamily K member 2)	-1.08	active
EXTL1 (exostosin like glycosyltransferase 1)	2.83	active
MOAP1 (modulator of apoptosis 1)	-1.12	active
ALKBH2 (alkB homolog 2, alpha-ketoglutarate dependent dioxygenase)	0.764	inactive
SLC36A4	-0.659	inactive
NOXRED1 (NADP dependent oxidoreductase domain containing 1)	0.469	inactive
PRR13 (proline rich 13)	-0.649	inactive
RMND5B (required for meiotic nuclear division 5 homolog B)	1.94	active
RTP4 (receptor transporter protein 4)	1.4	active
PDCD6IP (programmed cell death 6 interacting protein)	-1	inactive
CRIP1 (cysteine rich protein 1)	1.11	active
ACER2 (alkaline ceramidase 2)	0.273	inactive
LYST (lysosomal trafficking regulator)	-1.04	active
SLC7A7	-2.12	active
ZNF611 (zinc finger protein 611)	-0.39	inactive
CRISP2 (cysteine rich secretory protein 2)	0.847	inactive
ACSL6 (acyl-CoA synthetase long chain family member 6)	-1.15	active
SH3TC2 (SH3 domain and tetratricopeptide repeats 2)	2.78	active
CHCHD5 (coiled-coil-helix-coiled-coil-helix domain containing 5)	-0.843	inactive
CDCP2 (CUB domain containing protein 2)	-1.25	active
MIIP (migration and invasion inhibitory protein)	1.81	active
PTGR3 (prostaglandin reductase 3)	-0.525	inactive
ZXDA (zinc finger X-linked duplicated A)	-0.359	inactive
ELMOD2 (ELMO domain containing 2)	-1.76	active
SSX4B (SSX family member 4B)	-1.19	active
RELT (RELT TNF receptor)	-0.502	inactive
CLDN14 (claudin 14)	-0.601	inactive
SUGP1 (SURP and G-patch domain containing 1)	-1.47	active
OR4S2 (olfactory receptor family 4 subfamily S member 2)	-0.205	inactive
WDR47 (WD repeat domain 47)	0.76	inactive
CCL26 (C-C motif chemokine ligand 26)	0.0919	inactive
PADI3 (peptidyl arginine deiminase 3)	1.62	active
CHRM1 (cholinergic receptor muscarinic 1)	-0.603	inactive
PIGH (phosphatidylinositol glycan anchor biosynthesis class H)	-1.78	active
ZNF439 (zinc finger protein 439)	-0.157	inactive
GALNT4 (polypeptide N-acetylgalactosaminyltransferase 4)	1.16	active
CCSER2 (coiled-coil serine rich protein 2)	-0.614	inactive
FKBP1A (FKBP prolyl isomerase 1A)	-1.47	active
EBP (EBP cholestenol delta-isomerase)	-1.53	active
GSAP (gamma-secretase activating protein)	1.08	active
METTL21A (methyltransferase 21A, HSPA lysine)	-0.801	inactive
MKX (mohawk homeobox)	-0.351	inactive
GLOD4 (glyoxalase domain containing 4)	-1.41	active
MTAP (methylthioadenosine phosphorylase)	-1.54	active
EML4 (EMAP like 4)	-0.231	inactive
MEF2C (myocyte enhancer factor 2C)	-0.894	inactive
PLAC4 (placenta associated 4)	1.19	active
TBX3 (T-box transcription factor 3)	-0.651	inactive
PYCR2 (pyrroline-5-carboxylate reductase 2)	-1.91	active
ZNF548 (zinc finger protein 548)	-0.559	inactive
TMBIM1 (transmembrane BAX inhibitor motif containing 1)	1.05	active
PHACTR3 (phosphatase and actin regulator 3)	-0.715	inactive
MYOM1 (myomesin 1)	-2.05	active
PYCARD (PYD and CARD domain containing)	-1.16	active
VPS45 (vacuolar protein sorting 45 homolog)	0.0232	inactive
TMEM243 (transmembrane protein 243)	-2.12	active
GJD4 (gap junction protein delta 4)	-0.0956	inactive
CDH26 (cadherin 26)	-0.888	inactive
RECQL5 (RecQ like helicase 5)	-0.665	inactive
SPTA1 (spectrin alpha, erythrocytic 1)	-1.58	active
RAMP3 (receptor activity modifying protein 3)	-0.279	inactive
IFTAP (intraflagellar transport associated protein)	-2.1	active
BMP2 (bone morphogenetic protein 2)	-0.818	inactive

Looked up above.
For “z-score vs non-targeting control”, ABR (ABR activator of RhoGEF and GTPase) is entered as -0.588
ACSL6 (acyl-CoA synthetase long chain family member 6), z-score vs non-targeting control → -1.15
For “Outcome”, PADI3 (peptidyl arginine deiminase 3) shows active
CENPA (centromere protein A), z-score vs non-targeting control = 0.27
ZNF232 (zinc finger protein 232), z-score vs non-targeting control: 1.33
RTP4 (receptor transporter protein 4), Outcome: active
